From PubChem BioAssay AID504770 (ICCB-Longwood Screening Facility, Harvard Medical School, 2011) come the findings set out here.

Only a part is listed here, and it is no random draw. Active and inactive are the calls of the source. No stated cut-off is given here; in the data, active means z-score below about -2 (passing the limit was not always enough); inactive means the rest.

The nature of the test: PubChem AID 504770. Conditions: E. coli YBA685 rctB-dependent plasmid, OD600 growth, 3 h; hits give low values.
Turning to `C=CCN1CCN(CCOC(=O)C(O)(c2ccccc2)c2ccccc2)CC1`, the z-score was inactive: 1.45.

As to `CC(=O)OC1(C#N)CN2CCC1CC2` (configuration not stated), the z-score is inactive: -0.4.

`Nc1nonc1OCc1nonc1COc1nonc1N`: the z-score was inactive: -0.6.

On to `O=P(Nc1nccs1)(c1ccccc1)c1ccccc1`, for which the z-score was inactive: -0.2.

Consider `CC(=O)OC1CN2CCC1C(c1ccccc1)C2` (configuration not stated), for which the z-score is inactive: -0.7.

`Cc1ccccc1NP(C)(=O)Nc1ccccc1C`: the z-score was inactive: -0.25.

On to `O=P1(Nc2nc3ccc(Cl)cc3s2)COc2ccccc2O1` (configuration not stated), for which the z-score is inactive: -0.4.

On to `Cc1cc(NC2=NC3C(C(=O)N(C)C(=O)N3C)N2C)n(-c2ccccc2)n1` (configuration not stated), for which the z-score is inactive: 0.3.

For the molecule `O=P1(Nc2nncs2)C=C(c2ccccc2)SC(c2ccccc2)=C1`, the z-score is inactive: -0.2.

As for `O=C(OCCN1CCN(CCOCc2ccccc2)CC1)C(O)(c1ccccc1)c1ccccc1`, the z-score is inactive: 0.8.

Take `O=C(OCC1CN(Cc2ccccc2)CCO1)C(O)(c1ccccc1)c1ccccc1` (configuration not stated): the z-score is inactive: -0.25.

Regarding `COc1cc2c(cc1NP(C)(=O)Oc1ccccc1)oc1ccccc12` (configuration not stated), the z-score was inactive: -0.45.

As to `O=C(OC1CN2CCC1CC2)c1ccccc1` (configuration not stated), the z-score is inactive: 0.1.

Regarding `COC(=O)c1cc2c(s1)N=C(c1ccccc1)N(C)P2(=O)N1CCOCC1` (configuration not stated), the z-score is inactive: 1.1.

Turning to `O=C(OC1/C(=C/c2ccccc2F)N2CCC1CC2)c1ccccc1` (configuration not stated), the z-score is inactive: -1.05.

Consider `CC1CCC(C(C)C)C(OP(=O)(Nc2nccs2)c2ccccc2)C1` (configuration not stated), for which the z-score is inactive: -0.3.

As to `O=C(COC(=O)C(O)(c1ccccc1)c1ccccc1)N1CCCCC1`, the z-score was inactive: 0.15.

`CCOP(=Nc1nc2ccccc2n2nnnc12)(OCC)OCC`: the z-score was inactive: -0.75.

Regarding `CCOP(OCC)N1CCOCC1`, the z-score is inactive: 0.9.

In the case of `CP(=O)(Nc1ccccn1)Oc1ccccc1` (configuration not stated), the z-score is inactive: -0.4.

Take `CCc1nc2c(n1)c1c(non1O)c1c2no[n+]1[O-]`: the z-score is inactive: -0.7.

In the case of `CCc1ccc(OP(C)(=O)Nc2cccnc2)cc1` (configuration not stated), the z-score is inactive: 0.85.

On to `OCCSCCO`, for which the z-score is inactive: -0.1.

Regarding `CP(=O)(Nc1ccc(Cl)cc1)Oc1ccc(F)cc1` (configuration not stated), the z-score is inactive: 0.

On to `O=C(O)CCC(=O)N=S(c1ccccc1)c1ccccc1.O=[N+]([O-])c1cc([N+](=O)[O-])c(O)c([N+](=O)[O-])c1`, for which the z-score was inactive: 1.35.

Take `CP(=O)(Nc1ccc(Cl)cc1)Oc1ccccc1` (configuration not stated): the z-score was inactive: -0.85.

For the molecule `COc1ccccc1OP(C)(=O)Nc1ccccc1` (configuration not stated), the z-score is inactive: 0.15.

As for `CCN1C(=O)N(c2ccccc2)P(=S)(OC)c2cc3c(cc21)OCCO3` (configuration not stated), the z-score was inactive: -1.

Regarding `COP1(=S)c2c(C)nn(-c3ccccc3)c2N=C(c2ccccc2)N1C1CC1` (configuration not stated), the z-score is inactive: -0.3.

For `CP(=O)(NC(=O)Nc1ccccc1)Oc1ccccc1` (configuration not stated), the z-score is inactive: 1.25.

With `CCOC(=O)c1ccc(NP(C)(=O)Oc2ccc(OC)cc2)cc1` (configuration not stated), the z-score was inactive: 1.3.

As to `Cc1cccc(NP(C)(=O)Oc2ccccc2)c1` (configuration not stated), the z-score was inactive: 0.15.

As for `CCn1cccc/c1=N\P1(=S)OCCO1`, the z-score is inactive: -0.2.

In the case of `CN(C)P1(=O)Nc2ccccc2S1` (configuration not stated), the z-score is inactive: -0.2.

As to `O=P1(Nc2nccs2)CC=CC1`, the z-score was inactive: 0.85.

On to `O=C(OC1CN2CCC1CC2)C12CC3CC(CC(C3)C1)C2` (configuration not stated), for which the z-score is inactive: -0.3.

On to `CC1=Nc2ccc(C(F)(F)F)cc2C1(C)C`, for which the z-score is inactive: 1.35.

Take `O=C(O)C1(O)c2ccccc2-c2ccccc21`: the z-score is inactive: -0.15.

As for `Cc1cc(C)cc(OP(C)(=O)NCc2ccccc2)c1` (configuration not stated), the z-score was inactive: 0.35.

For the molecule `Nc1nonc1OCCOc1nonc1N`, the z-score was inactive: -0.8.

Consider `COP1(=S)N=C2c3ccccc3CN2c2cc(N(C)C)ccc21` (configuration not stated), for which the z-score was inactive: -2.

In the case of `NC(=O)COC(=O)C1(O)c2ccccc2-c2ccccc21`, the z-score was inactive: -0.75.

As for `O=P1(Nc2nc3ccc(Cl)cc3s2)COc2ccccc2OC1`, the z-score is inactive: -0.8.

As to `CCOP1(=S)c2c(C)nn(CCC#N)c2N=C(c2ccc(F)cc2)N1C` (configuration not stated), the z-score is inactive: 0.75.

Turning to `CC1(C)Nc2ccccc2OP1(=O)c1ccccc1` (configuration not stated), the z-score is inactive: -0.3.

In the case of `O=C(OC1CN2CCC1CC2)c1ccc(Cl)cc1` (configuration not stated), the z-score was inactive: -0.25.

With `Cc1cccc(OCC(=O)OC2CN3CCC2CC3)c1` (configuration not stated), the z-score is inactive: -0.5.

Regarding `COc1cc(-n2cnnn2)ccc1-n1cnnn1`, the z-score was inactive: 1.4.

Consider `O=P1(Nc2ccccn2)COc2ccccc2OC1`, for which the z-score is inactive: -0.25.

`Nc1nonc1-c1no[n+]([O-])c1-c1nonc1N`: the z-score was inactive: 2.05.

Turning to `Cc1ccc(C(=O)OC2CN3CCC2CC3)cc1` (configuration not stated), the z-score is inactive: -0.8.

As for `Cc1nn(-c2ccccc2)c2c1P(=O)(N1CCOCC1)N(C)C(c1ccccc1)=N2` (configuration not stated), the z-score is inactive: -0.9.

On to `Cc1nn(CCC#N)c2c1P(=O)(Nc1ccccc1Cl)N(C)C(c1ccc(F)cc1)=N2` (configuration not stated), for which the z-score was inactive: -1.15.

Take `CP(=O)(N1CCOCC1)N1CCOCC1`: the z-score was inactive: 0.45.

In the case of `Cc1cc(C)cc(OP(C)(=O)Nc2ccc(OC(C)C)cc2)c1` (configuration not stated), the z-score is inactive: 0.6.

With `CCSP(=O)(c1ccccc1)c1ccccc1`, the z-score was inactive: 1.2.

`CC1(C)COP(=S)(N(C2=NCCC2)c2ccccc2)OC1`: the z-score was inactive: 1.5.
